System: Leishmania (L.) infantum promastigotes (strain MHOM/MA/67/ITMAP-263)
Test: Anti-promastigote activity (resazurin viability assay, 24 h)
Assay type: cell-based
Conditions: read-out: Anti-Promastigote Activity (IC50), 24 h at 25 °C, means of three independent experiments

Molecule `c1ccc2c(NCCCNc3c4c(nc5ccccc35)CCCC4)c3c(nc2c1)CCCC3` has an IC50 of over 100 µM.

In the case of `c1ccc2c(NCCCCNc3c4c(nc5ccccc35)CCCC4)c3c(nc2c1)CCCC3`, the IC50 is reported as over 50 µM.

`c1ccc2c(NCCNc3c4c(nc5ccccc35)CCCC4)c3c(nc2c1)CCCC3` was tested, and the IC50 was over 100 µM.
